A mixed list of measured activities; the numbers were collected in NIAID ChemDB.

All rows: whole-cell or culture tests; species: Hepatitis B virus

ECn is the concentration giving n% inhibition of infection, replication or growth. Rows are shuffled and stem from different studies. Blank or dashed fields: not listed here.

smiles	strain or isolate	read by	cells	setting	measure	result
C#C[C@]1(CO)O[C@@H](n2cnc3c(N)nc(N)nc32)C[C@@H]1O	-	-	2.2.15	-	EC50	0.17 µM
Nc1nc2c(ncn2[C@@H]2C[C@H](CO)[C@@H](O)C2)c(=O)[nH]1	-	-	HepG2.2.15	-	EC90	0.1 µM
C[C@@H](COc1cc(N)nc(N)n1)OCP(=O)(O)O	-	-	HepAD38	-	EC50	17 µg/mL
Nc1ccn([C@@H]2C=C[C@H](CO)O2)c(=O)n1	RTM204	-	HepAD38	-	EC50	<0.06 µM
O=c1[nH]c(=O)n(C2OC(CO)CC2F)cc1I	-	-	2.2.15	-	EC50	>50 µM
O=C1CCc2ccccc2[Se]1	-	PCR	HepG2.2.15	-	EC50	>50 µM
Nc1nc(=O)n([C@@H]2C=C(F)[C@H](CO)O2)cc1F	RTM204	-	HepAD38	-	EC50	<0.22 µM
Nc1nc2c(ncn2[C@H]2O[C@@H](CO)C[C@@H]2F)c(=O)[nH]1	-	-	2.2.15	-	EC50	>10 µM
Cc1c(C(=O)O)cc2ccc3c(c2c1-c1ccc2c(c1)OCO2)OCO3	-	-	HepG2	-	EC50	>10 µM
CC(=O)[C@]1(O)CC[C@@]2(O)[C@]1(C)[C@H](OC(=O)/C=C(\C)C(C)C)CC1[C@@]3(C)CC[C@H](OC(=O)/C=C/c4ccccc4F)CC3=CC[C@]12O	-	PCR	HepG2.2.15	-	EC50	40.62 µM
O=c1[nH]c(=O)n([C@@H]2O[C@H](CO)[C@@H](O)[C@@H]2F)cc1I	-	-	HepG2 2.2.15	-	EC50	10 µM
C[C@H](COc1cc(N)nc(N)n1)OCP(=O)(O)O	-	-	HepAD38	-	EC50	1.2 µg/mL
COc1cc2oc(=O)ccc2cc1O	-	ELISA / antigen	HepG2.2.15	-	EC50	451 µM
Nc1nc(=O)n([C@@H]2C=C[C@H](CO)O2)cc1F	RTM204	-	HepAD38	-	EC50	<0.05 µM
Nc1nc(=O)n([C@H]2O[C@@H](CO)C[C@H]2F)cc1F	-	-	2.2.15	-	EC50	>10 µM
O=C(O)c1ccccc1O	-	PCR	HepG2.2.15	-	EC50	25.8 µM
COc1ccc(/C=C/C=C/C(=O)[Se]c2ccccc2)cc1	-	PCR	HepG2.2.15	-	EC50	32 µM
Nc1nc(=O)n([C@H]2O[C@@H](CO)C[C@H]2F)cc1Br	-	-	2.2.15	-	EC50	>10 µM
Nc1nc(N)c(C=O)c(OCCOCP(=O)(O)O)n1	-	-	HEPAD79	-	EC50	2.6 µg/mL
Nc1ccn([C@@H]2CS[C@H](CO)O2)c(=O)n1	WILD TYPE	-	-	-	EC50	0.47 µM
Cc1cn([C@H]2C[C@H](OP([O-])(=S)OC[C@H]3O[C@@H](n4cnc5c(N)ncnc54)C[C@@H]3O)[C@@H](COP([O-])(=S)O[C@H]3C[C@H](n4ccc(=O)[nH]c4=O)O[C@@H]3CO)O2)c(=O)[nH]c1=O	-	-	HepG2.2.15	-	EC50	2.2 µM
Nc1ncnc2c1ncn2[C@@H]1O[C@H](CO)[C@@H](O)[C@@H]1O	-	-	HepG2.2.15	-	EC90	23 µM
CC(=O)[C@]1(O)CC[C@@]2(O)[C@]1(C)[C@H](OC(=O)/C=C(\C)C(C)C)CC1[C@@]3(C)CC[C@H](OC(=O)/C=C/c4ccc(Cl)c([N+](=O)[O-])c4)CC3=CC[C@]12O	-	ELISA	HepG2.2.15	-	EC50	>79.52 µM
O=c1ccc2ccccc2[se]1	-	PCR	HepG2.2.15	-	EC50	>50 µM
CC(=O)[C@]1(O)CC[C@@]2(O)[C@]1(C)[C@H](OC(=O)/C=C(\C)C(C)C)CC1[C@@]3(C)CC[C@H](OC(=O)/C=C/c4ccccc4)CC3=CC[C@]12O	-	ELISA	HepG2.2.15	-	EC50	48.33 µM
COc1cc(/C=C/C(=O)[Se]c2ccccc2)ccc1O	-	PCR	HepG2.2.15	-	EC50	19.7 µM
COc1ccc([C@H]2OC[C@H]3[C@@H]2CO[C@@H]3c2ccc(OC)c(O)c2)cc1O	-	PCR	HepG2.2.15	-	EC50	10.92 µM
Nc1ncnc2c1ncn2CCOCP(=O)(O)O	-	-	HepG2.2.15	-	EC50	0.465 µM
Nc1ccn([C@H]2CC[C@@H](CO)O2)c(=O)n1	-	-	HepG2 2.2.15	-	EC50	100 µM
O=C(/C=C/C=C/c1ccc(O)c(O)c1)[Se]c1ccccc1	-	PCR	HepG2.2.15	-	EC50	6.3 µM
O=c1[nH]cnc2c1ncn2[C@H]1O[C@@H](CO)C[C@H]1F	-	-	2.2.15	-	EC50	>10 µM
Cc1c(N)nc(N)nc1OCCOCP(=O)(O)O	-	-	HepAD38	-	EC50	0.9 µg/mL
O=c1ccn([C@@H]2O[C@H](CO)C[C@@H]2F)c(=O)[nH]1	-	-	2.2.15	-	EC50	>10 µM
COc1ccc(Sc2nc(N)nc3c2ncn3CCOCP(=O)(OCC(F)(F)F)OCC(F)(F)F)cc1	Mutation M552V	-	Huh7	-	EC50	3.3 µM
Nc1ccn([C@H]2O[C@@H](CO)C=C2F)c(=O)n1	RTM204	-	HepAD38	-	EC90	0.74 µM
O=C(/C=C/c1ccccc1)[Se]c1ccccc1	-	PCR	HepG2.2.15	-	EC50	1.6 µM
Nc1nc(=O)n([C@H]2O[C@@H](CO)C[C@H]2F)cc1I	-	-	2.2.15	-	EC50	>10 µM
Nc1ccn([C@@H]2CS[C@H](CO)O2)c(=O)n1	-	-	HepG2 2.2.15	-	EC50	0.116 µM
Cc1cn([C@H]2C[C@H](F)[C@@H](CO)O2)c(=O)[nH]c1=O	-	-	HepG2.2.15	-	EC90	40 µM
CCOC(=O)/C=C/c1ccc(O)c(O)c1	-	PCR	HepG2.2.15	-	EC50	25.77 µM
Nc1nc(=O)n([C@@H]2CC[C@H](CO)O2)cc1F	RTM204	-	HEPAD79	-	EC90	>10 µM
C[C@H]1[C@H](C)C[C@@H](C(=O)O[C@@H]2O[C@H](CO[C@@H]3O[C@H](CO)[C@@H](O[C@@H]4O[C@H](C)[C@H](O)[C@@H](O)[C@H]4O)[C@H](O)[C@H]3O)[C@@H](O)[C@H](O)[C@H]2O)C2CC[C@]3(C)C(=CC[C@@H]4[C@@]5(C)C[C@@H](O)[C@H](O)[C@@](C)(CO)[C@@H]5CC[C@]43C)[C@H]21	-	ELISA / antigen	HepG2.2.15	14 d	EC50	52.1 µM
O=c1[nH]c(=O)n([C@H]2O[C@@H](CO)C[C@H]2F)cc1I	-	-	2.2.15	-	EC50	>50 µM
C=C1[C@H](CO)[C@@H](O)C[C@@H]1n1cnc2c(=O)[nH]c(N)nc21	-	-	HepG2 2.2.15	-	EC50	0.00375 µM
Nc1nc(N)c(Br)c(OCCOCP(=O)(O)O)n1	-	-	HEPAD79	-	EC50	6 µg/mL
Cc1cn([C@H]2O[C@@H](CO)[C@H](O)[C@H]2F)c(=O)[nH]c1=O	M550I	-	-	-	EC50	>100 µM
O=c1[nH]c(=O)n([C@@H]2O[C@H](CO)[C@@H](O)[C@@H]2F)cc1I	-	-	HepG2.2.15	-	EC90	24 µM

4 of the rows above, restated:

smiles	strain or isolate	read by	cells	setting	measure	result
C[C@H](COc1cc(N)nc(N)n1)OCP(=O)(O)O	-	-	HepAD38	-	EC50	1.2 µg/mL
Nc1nc(=O)n([C@H]2O[C@@H](CO)C[C@H]2F)cc1Br	-	-	2.2.15	-	EC50	>10 µM
Nc1nc(=O)n([C@H]2O[C@@H](CO)C[C@H]2F)cc1I	-	-	2.2.15	-	EC50	>10 µM
C=C1[C@H](CO)[C@@H](O)C[C@@H]1n1cnc2c(=O)[nH]c(N)nc21	-	-	HepG2 2.2.15	-	EC50	0.00375 µM